# Zika virus NS2B-NS3: effect of single substitutions on growth in cell culture

Chain scanned (Zika virus MR766; NS2B from position 2 to 131, then the start of NS3):
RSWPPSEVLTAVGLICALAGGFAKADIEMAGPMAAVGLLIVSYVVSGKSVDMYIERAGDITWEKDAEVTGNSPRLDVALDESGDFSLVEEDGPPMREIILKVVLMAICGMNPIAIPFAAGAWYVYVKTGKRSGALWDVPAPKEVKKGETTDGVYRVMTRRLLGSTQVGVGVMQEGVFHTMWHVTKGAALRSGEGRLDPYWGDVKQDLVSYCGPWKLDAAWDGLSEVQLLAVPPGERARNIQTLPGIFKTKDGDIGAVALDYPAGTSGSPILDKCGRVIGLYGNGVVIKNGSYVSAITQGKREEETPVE

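Pools of virus carrying all single amino acid changes were selected for growth in Huh-7.5 cells. The effect is the change in frequency of a mutant, normalised to wild type, as a mean of three replicate libraries (two for positions 207-308). The study looked for pockets that tolerate few changes, as a guide for inhibitor design.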

The number is log2 of the effect relative to wild type; negative values mean reduced growth, higher values better tolerance. Each entry names the wild-type residue, its position and the residue put in its place. All changes here are to aspartate. The region was split into three libraries (1-103, 104-206, 207-308). The authors count -1 or higher as tolerated. Position 1 is the last residue of NS2A. Values above 0 are not proof of better growth: six high scorers were tested one by one, five grew less well than wild type and one about as well.

change	log2 effect
N71D	-5.63
S72D	-6.03
P73D	-5.99
R74D	-5.44
L75D	-6.48
V77D	-6.03
A78D	-0.59
L79D	-5.69
E81D	-0.27
S82D	-4.45
G83D	-4.75
F85D	-4.51
S86D	-5.82
L87D	-5.85
V88D	-5.44
E89D	0.88
E90D	1.24
G92D	-6.35
P93D	-5.07
P94D	-1.10
M95D	-4.74
R96D	-4.70
E97D	-2.76
I98D	-5.49
I99D	-5.51
L100D	-5.26
K101D	-5.83
V102D	-4.93
V103D	-5.25
L104D	-4.96
M105D	-5.12
A106D	-4.09
I107D	-4.72
C108D	-5.80
G109D	-5.03
M110D	-3.39
N111D	-3.14
P112D	-4.55
I113D	-4.69
A114D	-5.18
I115D	-5.15
P116D	-3.97
F117D	-4.95
A118D	-5.92
A119D	-5.40
G120D	-5.88
A121D	-4.75
W122D	-3.50
Y123D	-5.38
V124D	-1.91
Y125D	-5.38
V126D	-5.02
K127D	-4.39
T128D	-2.99
G129D	-5.39
K130D	-5.53
R131D	-5.58
S132D	-5.59
G133D	-4.12
A134D	-5.44
L135D	-6.56
W136D	-6.18
V138D	-5.26
P139D	-4.81
A140D	-6.24
P141D	-4.10
K142D	-4.55
E143D	-3.27
V144D	-4.06
K145D	-3.36
K146D	-5.46
G147D	-4.69
E148D	-1.53
T149D	-3.59
T150D	-2.16
G152D	-5.59
V153D	-4.66
Y154D	-4.45
R155D	-4.80
V156D	-5.20
M157D	-4.36
T158D	-4.98
R159D	-4.50
R160D	-5.47

The first 9 entries again:

change	log2 effect
N71D	-5.63
S72D	-6.03
P73D	-5.99
R74D	-5.44
L75D	-6.48
V77D	-6.03
A78D	-0.59
L79D	-5.69
E81D	-0.27

The measurements come from Ni et al. 2025 (doi:10.1038/s41467-025-63602-z).